According to PubChem BioAssay (NCI):
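How tested: cells in 96-well plates exposed to compound for 48 hours at five concentrations. GI50 is the concentration that inhibits growth by half. At the TGI there is no net growth.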

Experiments:
Experiment in all cases: NCI anticancer screen, dose series, 48 h
NCI-H322M lung = tested on: NCI-H322M lung
HS 578T breast = tested on: HS 578T breast
SN12C renal = tested on: SN12C renal

CC1=CC2O[C@@H]3C[C@H]4OC(=O)/C=C\C=C\C56OCCC7(OC7C(=O)OCC2(CC1)[C@]4(C)[C@]31CO1)C5OC(O)C6O (stereo partly specified)
GI50 (NCI-H322M lung): 5.47 nM | TGI (NCI-H322M lung): 316 nM | GI50 (HS 578T breast): 1.69 nM | TGI (HS 578T breast): 3460 nM | GI50 (SN12C renal): 3.01 nM | TGI (SN12C renal): 3420 nM
